Human monoclonal antibodies against the spike receptor-binding domain (heavy:light variable regions). IC50 against pseudoviruses bearing the spike of naturally observed variants; lower = stronger; >10 µg/ml means not reached at the top dose. No active / inactive call. The stated detection limit is 0.0005 µg/ml; values near or below 0.001 µg/ml lie at the floor of the assay.
Key:
Experiment in all cases: pseudovirus neutralization IC50; higher = weaker neutralization
[1] = target: SARS-CoV-2 Omicron BA.1 spike pseudovirus
Method: (§1)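 Single-round VSV luciferase pseudovirus mixed with antibody dilutions for 1 h and put on Huh-7 cells for about a day; IC50 from the dose curve.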

[2] = target: SARS-CoV-2 Omicron BA.2 spike pseudovirus
Method: as §1

[3] = target: SARS-CoV-2 Omicron BA.2.75 spike pseudovirus
Method: as §1

[4] = target: SARS-CoV-2 Omicron BA.5 spike pseudovirus
Method: as §1

[5] = target: SARS-CoV-2 Omicron BQ.1.1 spike pseudovirus
Method: as §1

[6] = target: SARS-CoV-2 Omicron XBB spike pseudovirus
Method: as §1

[7] = target: SARS-CoV-2 early D614G spike pseudovirus
Method: as §1

Binder | pseudovirus neutralization IC50 [1] [µg/mL] | pseudovirus neutralization IC50 [2] [µg/mL] | pseudovirus neutralization IC50 [3] [µg/mL] | pseudovirus neutralization IC50 [4] [µg/mL] | pseudovirus neutralization IC50 [5] [µg/mL] | pseudovirus neutralization IC50 [6] [µg/mL] | pseudovirus neutralization IC50 [7] [µg/mL]
BD56-616 (protein) chain 1: VQLVQSGAEVKRPGSSVRVSCKTSGGTFGGYTITWVRQAPGQGLEWMGRIIPILGVPYYAQKFQGRITMTADKSTSTAYMELSSLKSEDTAVYYCARDLRSGSSLGDCGQGTLVTVSS chain 2: DIQMTQSPSSLSASVGDRVTITCQATQDITNYLNWYQQKPGKAPKLLIYDASNLETGVPSRFSGSGSGTEFTFTISSLQPEDIGTYYCQQYADLLSLTFGGGTKVEIK | 0.0864 | 0.069 | 0.0597 | > 10 | > 10 | 3.7 | 0.122
BD56-618 (protein) chain 1: QVQLVESGGGVVQPGRSLRLSCAASGFTFSRFAMHWVRQAPGKGLEWVAVVSYDAGNKYYADSVKGRFTISRDNSKNTLYLQMNSLRAEDTAVYYCAKGDYYGSGTYFNPYGMDVWGQGTTVIVSS chain 2: ATQLTQSPSSLSASVGDRVTITCRASQDISSALAWYQQKPGKAPKLLIFDASTLKSGVPSRFSGSGSGTDFTLTISSLQPEDSATYYCQQFSNYLVTFGGGTKVEIK | 0.0556 | 0.0434 | 0.0343 | > 10 | > 10 | 3.25 | 0.032
BD56-620 (protein) chain 1: QVQLVESGGGVVKPGRSLTLSCAASGFNFRTYAMHWVRQAPGKGLEWVAVISSDGSYKYYADSVKGRFTISRDNSKNTLYLQMNSLRAEDTAVYYCVREEGGDSVDDLNVRFDYWGQGTLVIVSS chain 2: DIQMTQSPSSLSASVGDRVTITCRASQNINYYLNWYQQKPGKAPNLLIYSASRLQSGVPSRFSGSGSGTHFTLTISSLQPEDFATYYCQQSYSTSMYTFGQGTKLEIK | > 10 | > 10 | > 10 | > 10 | > 10 | > 10 | 3.31
BD56-615 (protein) chain 1: EVQLVQSRAEVKKPGASLKISCKASGYNFTTYWIGWVRQMPGKGLEWMGIIYPGDSDTRYRPSFEGQVSISADKSITTAYLQWRTLKASDTAVYYCARLVSFDWFVDYWGQGTLVTVSS chain 2: DIVMTQTPLSLSVTPGQPASISCKSSQSLLQSDGTTSLYWYLQKPGQPPQLLIYEVSNRFSGVPDRFSGSGSGTDFTLKISRVEAEDVGVYYCMQSIQLLTWTFGQGTKVEIK | 0.043 | 0.112 | 0.254 | 0.0844 |  |  | 0.0102
BD56-628 (protein) chain 1: QVQLQESGPGLVKPSETLSLTCTVSGGSVSSGDYYWSWIRQPPGKGLEWIGYIYYSGSTNYNPSLKSRVSISVDTSKNQFSLKMSSVTTADTAVYYCARGIAVVGTDDDYYYYYGMDVWGQGTTVTVSS chain 2: SYELTQPPSMSVSLGQMARITCSGEALPKKYAYWYRQKPGQFPVLVIYKDNERPSGIPERFSGSSSGTIVTLTISGVQAEDEADYYCLSADSSDTWVFGGGTKLTVL | 3.32 | 3.55 | 6.44 | 5.35 | > 10 | 7.21 | 3.11
BD56-632 (protein) chain 1: QVQLVESGGGVVQPGRSLRLSCAASGFSFSNYAMHWVRQAPGKGLEWVADISYDGSKKHFADSVKGRLTISRDNSKNTLYLELNSLRAEDTAVYYCAKLHYYSDTAGYYYEDYFNFWGQGTLVTVSS chain 2: EIVLTQSPATLSLSPGERATLSCRASQSVNNYLAWYQQRPGQAPRLLIYDASNRATGIPARFSGSGSGTDFTLTISSLEPEDFAVYYCHQRSDWPLTFGGGTKVEIK | 0.995 | 0.841 | 0.475 | 0.357 | > 10 | > 10 | 0.5
BD56-604 (protein) chain 1: QVQLQESGPGLVKPSETLSLTCSVSGGSVSSSDYYWSWIRQPPGKGLEWIGYIYYSGSTNYNPSLKSRVTISVDTSKNQFSLKLSSVTAADTAVYYCARGVAMVRGVLSGAEYFDYWGQGTLVTVSS chain 2: SYELTQPPSVSVSPGQTARITCTGDAFPKQYAFWYQKKPGQPPVLVIYKDTERPSGIPGRFSGSSSGTTVTLTISGVQAADEADYYCQSADSSGVVFGGGTKLTVL | > 10 | > 10 | > 10 | > 10 | > 10 | > 10 | > 10
BD56-598 (protein) chain 1: QLQLQESGPGLVKPSETLSLTCTVSGDSISGSFSYWGWIRQPPGKGLEWIGTIYYSGSTYYNPSLKSRVTISVDTSKNQFSLKLSSLTAADTAVYYCARTPSILWWGQFDYWGQGTLVTVSS chain 2: NFMLTQPHSVSESPGKTVTISCTGSSGSIASNYVQWYQQRPGSAPTNVIYEDNQRPSGVPDRFSGSIDRSSNSASLTISGLKTEDEADYYCQSYDSNKLVVFGGGTKLTVL | 2.2 | 1.98 | 3.13 | 1.52 | 1.92 | 1.83 | 0.874
BD56-601 (protein) chain 1: EVHLVESGGGLVQPGGSLRLSCSASGFTFSNYAMHWVRQTPGKGLEYVSSIGSNGDSPYYADSVKGRFIISRDNSKNTLYLQMSSLRDEDTAVYYCVKDVNTAMVTIFDCWGQGTLVTVSS chain 2: DIQMTQSPPSLSASVGDRVTITCRASQSISTYLNWYQQKPGKAPKLLIYSASNLQSGVPSRFSGSGSRTDFTLTISSLQPEDFATYYCQQSYSSLLTFGGGTKVEIK | > 10 | > 10 | > 10 | > 10 | > 10 | > 10 | > 10
P4A1 (protein) chain 1: EVQLVESGGGLIQPGGSLRLSCAASGFIVSSNYMSWVRQAPGKGLEWVSIIYSGGSTFYADSVKGRFTISRDNSKNTLYLQMNSLRVEDTAVYYCARDLQELGSLDYWGQGTLVTVSS chain 2: DIQMTQSPSSVSASVGDRVTITCRASQGISSWLAWYQQKPGKAPKLLIYAASSLQSGVPSRFSGSGSGTDFTLTISSLQPEDFATYYCQEANSFPYTFGQGTKLEIK | > 10 | > 10 | > 10 | > 10 | > 10 | > 10 | 0.0438
DH1159-2 (protein) chain 1: QVQLQESGPGLVKPSQTLSLTCTVSGGSISSATYYWSWIRQPAGKGLEWIGHIYTSGTTNYNPSLKSRVTISVDTSKSQFSLKLNSVTAADTAVYYCARGLRFCSDTRCYPYFDYWGQGTLVTVSS chain 2: DIQMTQSPSSLSASVGDRVTITCRASQSISNYLNWYQQTPGKAPKLLVYATSGLQSGVPSRFTGSGSGTDFTLTISSLQPGDFAIYYCQQTYSAPWTFGQGTKVEIK | > 10 | > 10 | > 10 | > 10 | > 10 | > 10 | 2.96
BD56-638 (protein) chain 1: QVQLVESGGGVVQPGRSLRLSCAASGFTFSNYAIHWVRQAPGKGLEWLAVISYDGTYKYYSDSVKGRFTISRDSSNTLYLQLNSLTTEDTAVYFCARDMNAHPSVYAYGMDVWGPGTTVTVS chain 2: QSVLTQPPSVSGAPGQRVTISCTGSTSNVGAGYDVHWYQQLPGTAPKLLIYGNSDRPSGVPDRFSGSKSGTSAALAITGLQAEDEAAYYCQSYDSSLSGWLFGGGTELTVL | 2.33 | 2.78 | 2.18 | 2.21 | > 10 | > 10 | 3.74
DH1082 (protein) chain 1: EVQLVESGGGLIQPGGSLRLSCAASGLFFGAYSMNWVRQAPGKGLEWVAYISSSSKTIYYADSVKGRFTISRDNAKNELFLQMTSLRDEDTAVYFCACMVGPTAPFDFWGQGTRVTVSS chain 2: DIQMTQSPSSLSASVGDRVTITCRAGQIIGTYLNWYQQRPGKAPMLLIYAASNLHSGVPSRFSGSGSGTDFTLTIDSLQPEDFATYYCQQTYSTPRTFGPGTKLEIK | > 10 | > 10 | > 10 | > 10 | > 10 | > 10 | 5.28
